Test results reported in patent publication US5656449A, “Neutral unsymmetrical cyanine dyes” (Molecular Probes, Inc., priority 1995, dated 1997).
Structures can show the parent of a compound that is named as a salt.

Tested on: E. Coli ribosomal RNA
Assay: Quantum yield of dyes bound to ribosomal RNA (Table 1)

CCN1C(=Cc2cc(Sc3ccccc3)nc3ccccc23)Sc2ccccc21 [Dye 509] and CCN1C(=Cc2cc(-c3ccccc3)nc3ccccc23)Sc2ccccc21 [Dye 4100] are the same in “Quantum Yield (RNA)” value: 0.07 for the first, 0.07 for the second.

Compared with CCN(CC)c1cc(C=C2Sc3ccccc3N2CC)c2ccccc2n1 [Dye 510], CCCCc1cc(C=C2Sc3ccccc3N2CC)c2ccccc2n1 [Dye 1268] is lower in “Quantum Yield (RNA)” value: 0.44 for the first, 0.24 for the second.

Going from Cc1cc(C=C2Sc3ccccc3N2C)nc2ccccc12 [Dye 523-1] to Cc1cc(C=C2Sc3ccccc3N2C)c2ccccc2n1 [Dye 523-2], the “Quantum Yield (RNA)” value falls from 0.29 to 0.28.

Compared with CN1C(=Cc2ccnc3ccccc23)Sc2ccccc21 [Dye 798, 4-(2,3-dihydro-3-methyl-(benzo-1,3-thiazol-2-yl)-methylidine)-quinolinium tosylate], CCN1C(=Cc2ccnc3ccccc23)Sc2ccccc21 [Dye 1266] is lower in “Quantum Yield (RNA)” value: 0.13 for the first, 0.12 for the second.

Compared with CN1C(=Cc2ccnc3ccccc23)Oc2ccccc21 [Dye 799], CN1C(=Cc2cc[n+](C)c3ccccc23)Oc2ccccc21 [Oxazole Yellow, reference compound] is higher in “Quantum Yield (RNA)” value: 0.48 for the first, 0.54 for the second.

Going from COc1ccc2nc(C=C3Sc4ccccc4N3C)ccc2c1 [Dye 1267] to CN1C(=Cc2ccc3ccccc3n2)Sc2ccccc21 [Dye 7100], the “Quantum Yield (RNA)” value falls from 0.12 to 0.09.

First: CN1C(=Cc2ccncc2)Sc2ccccc21 [Dye 7101]
Second: CN1C(=Cc2cc[n+](C)c3ccccc23)Sc2ccccc21 [Thiazole Orange, reference compound]
The “Quantum Yield (RNA)” value of the first is lower: 0.12 for the first, 0.15 for the second.
